The subject of the data set is P. falciparum-infected red blood cells. Briefly: Confocal microscopy, cellular localization of CM-CQ. It counts as cell-based, Plasmodium falciparum.

Molecules are shown by their SMILES.

For `CCN(CCCCNc1ccnc2cc(Cl)ccc12)CC(=O)NCCNC(=O)Cc1cc(=O)oc2cc(N(C)C)ccc12` [CM-CQ], the “accumulation / localization within the parasite” value (30 nM) is on record as “No accumulation”, the “accumulation / localization within the parasite” value (300 nM) is recorded as “localizes in the hemazoin-containing food vacuole” and the “accumulation / localization within the parasite” value (concentrations exceeding 3 μM) is listed as “non-specific”.

For the origin of these results see patent publication US20120100555A1, “Synthesis And Use Of Fluorophore-Tagged Antimalarials” (priority 2009, published 2012).
